# Test results published in publication PMC9363231, “High‐resolution analysis of individual spike peptide‐specific CD4 ^+ T‐cell responses in vaccine recipients and COVID‐19 patients” (Clinical & Translational Immunology, 2022).
# Columns and labels:
# Assay in all cases: biochemical
# Type in all cases: binding
# HLA-DRB1*12:01 = HLA-DRB1*12:01 (Homo sapiens, UniProt P01903+P01911, A100R/A169T/D57E/D86V/F55L/H45Y/K41T/L162R/M171V/P40S/Q125H/Q178H/Q39Y/Q99D/R42G/S66L/T262R/V114A/V67L/W38E/Y59H/Y61H/Y89S)
# HLA-DRB1*07:01 = HLA-DRB1*07:01 (Homo sapiens, UniProt P01903+P01911, A100R/A102G/A103Q/D57E/D86V/E43K/F76Y/K127E/L162R/M171V/P40G/Q125H/Q99D/R33Q/R42Y/R54Q/S133A/S66F/T210M/V115G/Y107V/Y59L/Y89S)
# HLA-DRB1*11:01 = HLA-DRB1*11:01 (Homo sapiens, UniProt P01903+P01911, A100R/A169T/A87E/I96F/K41T/L162R/M171V/P40S/Q125H/Q178H/Q39Y/Q99D/R42S/S66Y/T262R/V115G/W38E)
# HLA-DRB1*04:05 = HLA-DRB1*04:05 (Homo sapiens, UniProt P01903+P01911, A100R/A169T/D86S/F76Y/I96L/K127E/L162R/M171V/N62H/P40V/Q125Y/R42H/S133A/S149N/S66Y/V115G/V209L/W38E)
# HLA-DRB1*04:01 = HLA-DRB1*04:01 (Homo sapiens, UniProt P01903+P01911, A100K/A169T/F76Y/I96L/K127E/L162R/M171V/N62H/P40V/Q125Y/R42H/S133A/S149N/S66Y/V115G/V209L/W38E)
# HLA-DRB1*08:02 = HLA-DRB1*08:02 (Homo sapiens, UniProt P01903+P01911, A100R/A103L/A169T/F76Y/H45Y/I96F/K41T/L162R/M171V/P40S/Q125H/Q178H/Q39Y/Q99D/R218S/R42G/S66Y/V115G/W38E)
# HLA-DRB1*01:01 = HLA-DRB1*01:01 (Homo sapiens, UniProt P01903+P01911, A100R/D57E/F55L/F60I/F76Y/I96L/L162R/M171V/P40L/Q125E/R42F/V115G/Y59C)
# HLA-DRB1*13:02 = HLA-DRB1*13:02 (Homo sapiens, UniProt P01903+P01911, A100E/A169T/K41T/L162R/M171V/P40S/Q125H/Q178H/Q39Y/Q99D/R42S/S66N/T262R/V115G/W38E/Y61H)
# HLA-DRB1*09:01 = HLA-DRB1*09:01 (Homo sapiens, UniProt P01903+P01911, A100R/A103E/D57H/D86V/F55Y/F60I/F76Y/I96F/K127E/L162R/M171V/P40D/Q125H/Q99R/R33Q/R42F/S133A/S66N/T210M/V115G/W38K/Y107V/Y59G/Y89S)
# HLA-DRB1*03:01 = HLA-DRB1*03:01 (Homo sapiens, UniProt P01903+P01911, A100K/A102G/A103R/A169T/F55Y/I96L/K41T/L162R/M171V/P40S/Q125H/Q178H/Q39Y/R42S/S66N/T106N/T262R/W38E/Y61H)
smiles,measurement,setting,value
CC[C@H](C)[C@H](NC(=O)[C@H](CCCNC(=N)N)NC(=O)[C@H](CCCCN)NC(=O)[C@H](CCCNC(=N)N)NC(=O)[C@H](CC(N)=O)NC(=O)[C@H](Cc1c[nH]c2ccccc12)NC(=O)[C@H](C)NC(=O)[C@@H](N)Cc1ccc(O)cc1)C(=O)N[C@@H](CO)C(=O)N[C@@H](CC(N)=O)C(=O)N[C@@H](CS)C(=O)N[C@H](C(=O)N[C@@H](C)C(=O)N[C@@H](CC(=O)O)C(=O)N[C@@H](Cc1ccc(O)cc1)C(=O)O)C(C)C [compound 71],IC50,HLA-DRB1*12:01,3.67 µM
same,IC50,HLA-DRB1*07:01,> 40 µM
same,IC50,HLA-DRB1*11:01,0.037 µM
same,IC50,HLA-DRB1*04:05,3.81 µM
same,IC50,HLA-DRB1*04:01,0.865 µM
same,IC50,HLA-DRB1*08:02,0.852 µM
same,IC50,HLA-DRB1*01:01,22 µM
same,IC50,HLA-DRB1*13:02,12.7 µM
same,IC50,HLA-DRB1*09:01,> 40 µM
same,IC50,HLA-DRB1*03:01,> 40 µM
